The record followed here is PubChem BioAssay AID588501 (NMMLSC, 2011).

Protein sequences, listed by entry. Tags and fused reporters are not part of them.
UniProt P15917, whole entry, looked up: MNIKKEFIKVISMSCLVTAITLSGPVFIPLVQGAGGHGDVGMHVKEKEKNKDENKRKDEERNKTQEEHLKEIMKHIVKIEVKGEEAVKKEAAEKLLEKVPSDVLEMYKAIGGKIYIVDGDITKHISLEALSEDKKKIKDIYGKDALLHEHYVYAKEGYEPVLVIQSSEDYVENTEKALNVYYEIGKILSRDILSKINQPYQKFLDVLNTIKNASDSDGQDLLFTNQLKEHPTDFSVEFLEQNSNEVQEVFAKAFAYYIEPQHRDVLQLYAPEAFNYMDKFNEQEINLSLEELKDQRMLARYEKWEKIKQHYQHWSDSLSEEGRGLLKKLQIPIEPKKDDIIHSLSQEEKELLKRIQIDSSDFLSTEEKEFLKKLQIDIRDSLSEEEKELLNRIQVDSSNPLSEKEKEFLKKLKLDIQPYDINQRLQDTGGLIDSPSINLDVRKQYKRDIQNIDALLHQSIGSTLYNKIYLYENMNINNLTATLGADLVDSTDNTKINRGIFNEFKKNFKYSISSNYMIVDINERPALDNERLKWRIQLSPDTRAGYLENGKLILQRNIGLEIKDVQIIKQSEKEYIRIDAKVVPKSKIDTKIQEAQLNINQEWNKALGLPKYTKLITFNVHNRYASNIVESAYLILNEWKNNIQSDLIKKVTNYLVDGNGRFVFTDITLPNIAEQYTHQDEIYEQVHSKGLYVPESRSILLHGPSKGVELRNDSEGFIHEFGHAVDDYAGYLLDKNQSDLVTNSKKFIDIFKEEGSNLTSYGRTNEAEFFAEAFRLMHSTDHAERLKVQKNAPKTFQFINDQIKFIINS

As usually defined, the inhibition is the change of the read-out against control, counted positive when it falls.

The structures appear in SMILES notation. Only a part is listed here, and it is no random draw. Activity calls are given as the source filed them. No stated cut-off is given here; in the data, active means inhibition above about 30%; inconclusive means no clear call, values can overlap the other calls; inactive means below that.

This test concerns the target Lethal factor (Bacillus anthracis) (UniProt P15917). As to the kind of experiment: anthrax lethal factor cleavage blockers – biochemical, multiplex microsphere, MLPCN library, primary screen (AID 588501). Further: plate controls were buffer without enzyme for full effect and enzyme alone for no effect. The following applies: multiplex microsphere protease cleavage assay, LF; at 10 µM; stronger effect = higher value.
In the case of `CC1CCNP(=O)(N(CCCl)CCCl)O1` (centres undefined), the inhibition is inactive: -2.8%.
Regarding `CCOC(=O)Nc1ccc([As](=O)(O)O)c(O)c1`, the inhibition is inactive: -6.3%.
`O=C(O)C(O)c1ccc(N(CCCl)CCCl)cc1` (centres undefined): the inhibition is inactive: -1.5%.
The value for `O=[N+]([O-])c1ccc(Nc2ccc(Oc3ccc([N+](=O)[O-])cc3[N+](=O)[O-])cc2)c([N+](=O)[O-])c1` was inactive: -3.8%; that for `O=P(Nc1ccccn1)(c1cccc2ccccc12)c1cccc2ccccc12` was inactive: -2%.
Next, `Cc1cc(SC(NC=O)C(Cl)(Cl)Cl)ncn1` (centres undefined): inactive: -1.3%; `CCOC(=O)Nc1cccc([As](=O)(O)O)c1`: inactive: 1.8%.
With `Cc1ccc2nc3c(c(C)c2c1)CC(C(Cl)Cl)S3` (centres undefined), the inhibition is inactive: 0.6%.
Consider `[N-]=[N+]=NC1CCCCC1NC(=O)c1cc([N+](=O)[O-])cc([N+](=O)[O-])c1` (centres undefined), for which the inhibition is inactive: 5.6%.
Next, `Cc1ccc(OP(=O)(Nc2ccc([N+](=O)[O-])cn2)Oc2ccc(C)cc2)cc1`: inactive: -6.9%.
The value for `C[As](=O)(O)c1cccc(C(=O)O)c1` was inactive: -7.1%; that for `O=[As](O)(c1ccc(O)cc1)c1ccccc1O` was inactive: -8.1%.
Next, `O=[N+]([O-])c1ccc(-c2cc([N+](=O)[O-])c(O)c([N+](=O)[O-])c2)cc1`: inactive: -4.9%; `CCN(CC)C(=S)SC(NC=O)C(Cl)(Cl)Cl` (centres undefined): inactive: 3.5%.
As for `O=C(OC1CN2CCC1CC2)c1cccc2[nH]cnc12` (centres undefined), the inhibition was inactive: 18.7%.
`CC(C)NC(=O)NP(=O)(Oc1ccccc1)Oc1ccccc1`: the inhibition is inactive: -1.7%.
Next, `O=[N+]([O-])c1cc([N+](=O)[O-])c(-c2ccn[nH]2)s1`: inactive: -1.6%; `CC(C)c1ccc(OP(=O)(Nc2ccccn2)Oc2ccccc2F)cc1` (centres undefined): inactive: 7.2%.
The value for `COC(=O)C1(C)COP(=O)(N2CCCCCC2)OC1` (centres undefined) was inactive: 1%.
The value for `ClCCSc1nnc(-c2cccnc2)o1` was inactive: 6.2%; that for `COc1ccc2nc(NP(=O)(c3ccccc3)c3ccccc3)sc2c1` was inactive: -5.8%.
As to `COc1cc(I)ccc1[As](=O)(O)O`, the inhibition was inactive: -5.5%.
Next, `O=P1(N(CCCl)CCCl)OCCCN1CCCl` (centres undefined): inactive: 1%; `O=P1(N(CCCl)CCCl)Nc2ccccc2N1`: inactive: -11.4%; `O=C(OC1CN2CCC1CC2)C12CC3CC(CC(C3)C1)C2` (centres undefined): inactive: -0.1%.
For `Cc1cc(=O)[nH]c(N[N+](=O)[O-])n1`, the inhibition is inactive: 0.6%.
The value for `Cc1c2c(nc3ccccc13)SC(C(Cl)Cl)C2` (centres undefined) was inactive: -1.1%; that for `COc1ccc(N/C(=N/P(=O)(N2CCOCC2)N2CCOCC2)N2CCOCC2)cc1` was inactive: -1.7%; that for `O=[N+]([O-])c1cc(Oc2ccc([N+](=O)[O-])cc2C(F)(F)F)cc([N+](=O)[O-])c1` was inactive: 4.7%.
As for `O=[As](O)(c1cccc(O)c1)c1cccc(O)c1`, the inhibition was inactive: -1%.
The value for `Cc1cccc(OCC(=O)OC2CN3CCC2CC3)c1` (centres undefined) was inactive: -0.1%; that for `O=[As](O)(O)c1cccnc1` was inactive: 0.9%.
For the compound `CS(=O)(=O)c1ccc(Cl)c(NC(=O)COC(=O)C(O)(c2ccccc2)c2ccccc2)c1`, the inhibition was inactive: -4.8%.
As for `COc1cc(C2NCCC3(OCCO3)C2(C)C)cc(OC)c1OC` (centres undefined), the inhibition is inactive: -0.8%.
The value for `CCOP(=O)(Nc1cccc2ccccc12)OCC` was inactive: 0.8%; that for `CCCOP(=S)(Nc1nc(N)cc(=O)[nH]1)OCCC` was inactive: -4.8%; that for `Cc1ccc(NCCc2c([N+](=O)[O-])cc([N+](=O)[O-])cc2[N+](=O)[O-])cc1` was inactive: -1.6%.
The value for `Nc1cccc2c([As](=O)(O)O)cccc12` was inactive: 16.6%; that for `Nc1ccccc1[As](=O)(O)c1ccccc1` was inactive: 1.7%; that for `O=C(O)COc1ccc([As](=O)(O)O)cc1[N+](=O)[O-]` was inactive: 9.4%.
In the case of `CCOP1(=S)c2c(C)nn(CCC#N)c2N=C(c2ccccc2F)N1C` (centres undefined), the inhibition is inactive: 0.7%.
The value for `O=P(Nc1nccs1)(c1ccccc1)c1nc2ccccc2s1` (centres undefined) was inactive: 4.8%.
Consider `O=P(Nc1nccs1)(Oc1ccccc1)Oc1ccccc1`, for which the inhibition is inactive: 0%.
Take `CN(C)C(=O)c1cc([N+](=O)[O-])cc2c1-c1c(cc([N+](=O)[O-])cc1[N+](=O)[O-])C2=O`: the inhibition is inactive: -1.5%.
The value for `O=[N+]([O-])c1ccc2c(c1)nnn2O` was inactive: -2.8%; that for `CN(C(=O)Cc1ccc(Cl)c(Cl)c1)[C@H]1CC[C@@]2(CCCO2)C[C@@H]1N1CCCC1` was inactive: -13.3%.
Next, `N#CCCN(C(=O)COC(=O)C(O)(c1ccccc1)c1ccccc1)c1ccc(F)cc1`: inactive: -56.8%.
On to `CCOP1(=S)c2c(C)nn(CCC#N)c2N=C(c2ccc(F)cc2)N1C` (centres undefined), for which the inhibition is inactive: -2.6%.
In the case of `CN(C(=O)Cc1ccccc1)[C@@H]1CC[C@]2(CCCO2)C[C@H]1N1CCCC1`, the inhibition was inactive: -4.7%.
Take `NC(=O)Nc1ccc([As](=O)(O)O)cc1`: the inhibition was inactive: -5.3%.
On to `O=C(/C=C/c1ccccc1)OC1CN2CCC1CC2` (centres undefined), for which the inhibition was inactive: -2.4%.
For the compound `CCCC1OP(=O)(Nc2ccccc2)OCC1CC` (centres undefined), the inhibition was inactive: -0.2%.
`Cc1nn(-c2ccccc2)c2c1P(=O)(N1CCOCC1)N(C)C(c1ccccc1)=N2` (centres undefined): the inhibition is inactive: 3.9%.
The value for `CC1CCC(C(C)C)C(OP(=O)(Nc2ccccn2)c2ccccc2)C1` (centres undefined) was inactive: 4%.
Next, `Cc1ccc(C(=O)OC2CN3CCC2CC3)cc1` (centres undefined): inactive: 13.2%; `O=P1(Nc2ccc(Br)cn2)COc2ccccc2OC1`: inactive: -1.2%.
The value for `NS(=O)(=O)c1cccc(NC(=O)COC(=O)C(O)(c2ccccc2)c2ccccc2)c1` was inactive: -2.5%; that for `Cc1ccc(OCC(=O)OC2CN3CCC2CC3)cc1` (centres undefined) was inactive: -1.3%.
Consider `O=[As](O)(c1cccs1)c1cccs1`, for which the inhibition was inactive: 4.6%.
As to `Nc1cccc([As](=O)(O)c2ccccc2)c1`, the inhibition was inactive: 5.5%.
`O=P1(Nc2ncccn2)COc2ccccc2OC1`: the inhibition is inactive: -1%.
In the case of `Cc1ccc(S(=O)(=O)N(CCCN)CCCc2c(C)nc(N)[nH]c2=O)cc1`, the inhibition was inactive: -1.5%.
Next, `O=P1(N(CCCl)CCCl)NCCC(C(F)(F)F)O1` (centres undefined): inactive: -8.9%.
Turning to `Clc1n[nH]nc1-c1nn[nH][15n]1`, the inhibition was inactive: -226%.
Next, `CC(C)(C)C(=O)NC(Sc1ncccn1)C(Cl)(Cl)Cl` (centres undefined): inactive: 0.1%.
In the case of `CN(CCCl)Cc1cc(Cl)c(NC2=NCCN2)c(Cl)c1`, the inhibition was inactive: -3.6%.
As to `CCOP(=O)(Nc1ccc(C)cn1)OCC`, the inhibition is inactive: -3.2%.
`O=P1(Nc2ccccn2)COc2ccccc2OC1`: the inhibition was inactive: 1%.
As for `CCC1=CC2Cc3nc4ccc(Cl)cc4c(N)c3C(C1)C2` (centres undefined), the inhibition is inactive: 3.9%.
Take `CCOP(=O)(NC(=NC(C)c1ccccc1)NC(C)c1ccccc1)OCC` (centres undefined): the inhibition is inactive: 4.7%.
The value for `CC1(CBr)Cn2c(nc3ccccc3c2=O)S1` (centres undefined) was inactive: -0.7%; that for `CC(C)/C=N\N=C(\N)N[N+](=O)[O-]` was inactive: 0.4%.
The value for `CN(C(=O)Cc1ccc(Cl)c(Cl)c1)[C@@H]1CCCC[C@H]1N1CCCC1` was inactive: 0.4%; that for `COc1ccccc1CNC(=O)COC(=O)C(O)(c1ccccc1)c1ccccc1` was inactive: 3.3%.
